{"source": "paper PMC10281000", "about": "(Chembiochem : a European journal of chemical biology, 2021)", "tested_on": "O=C(O)CCl", "assay": "purified protein", "conditions": "pH 9.5; 25.0 °C"}
{"substance": "RSc1362 (Ralstonia pseudosolanacearum GMI1000)", "values": [{"measurement": "Km", "result": "60 ± 20", "unit": "µM"}, {"measurement": "kcat/Km", "result": 140000, "unit": "M⁻¹ s⁻¹"}]}
